In patent publication US20130330358A1 (UNIVERSITY OF SOUTHERN CALIFORNIA, published 2013) one finds Ka and Kd data, which are given here for 1 molecule.

What all share (assay): ITC, titration against HAUSP TRAF domain, 20 °C
(In general: Isothermal titration calorimetry measures the heat released or taken up as one component is titrated into another.)

Experiment [1] concerns the target T1, vIRF4^153-216 (Kaposi's-sarcoma-associated-herpesvirus …, UniProt Q2HR73 153-216).
T1 sequence: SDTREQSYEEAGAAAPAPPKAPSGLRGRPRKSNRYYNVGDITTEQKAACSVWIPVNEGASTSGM

In experiment [2] the target is vIRF4^[…]/Δ202-216/Δ237-256 (Kaposi's-sarcoma-associated-herpesvirus …).
In experiment [3] the target is vIRF4^[…]/Δ202-216 (Kaposi's-sarcoma-associated-herpesvirus …).

B1: HAUSP TRAF domain (HAUSP^62-205) (enzyme)
chain: DTSWRSEATFQFTVERFSRLSESVLSPPCFVRNLPWKIMVMPRFYPDRPHQKSVGFFLQCNAESDSTSWSCHAQAVLKIINYRDDEKSFSRRISHLFFHKENDWGFSNFMAWSEVTDPEKGFIDDDKVTFEVFVQADAPHGVAW
A word on the Kd: it is the concentration at which binding is half-saturated. Lower therefore signals a tighter complex. Take B1: the Ka is 1.84e+06 M⁻¹ in experiment [1], 250000 M⁻¹ in experiment [2] and 290000 M⁻¹ in experiment [3]. Further, the Kd in experiment [1] was determined as 0.54 µM; in experiment [2], 4.03 µM; in experiment [3] it was 3.45 µM.
